Measured values from several laboratories, pooled; numbers as filed in NIAID ChemDB.

All rows: growth or infection tests; species: Candida albicans; read-out: EC50

Neighbouring rows are from separate reports.

SMILES | strain | method | value
CC(C)=CCC/C(C)=C/CCC(C)=CCCC[n+]1cccc(C)c1.Cc1ccc(S(=O)(=O)[O-])cc1 | CCH442 | - | 0.61 µM
C1CCC(C[C@@H]2CN=C3N2C[C@H](C2CCCCC2)N3CCC23CC4CC(CC(C4)C2)C3)CC1 | ATCC 10231 | - | 8.3 µg/mL
C[C@H]1[C@@H](Oc2ccc(S)cc2)O[C@@H]2O[C@]3(C)CC[C@H]4[C@H](C)CC[C@@H]1C24OO3 | ATCC 90028 | - | >50 µg/mL
O=c1ccoc2ccc(Sc3n[nH]c(=S)s3)cc12 | ATCC 90028 | resazurin | >50 µg/mL
Clc1ccc(COC(Cn2ccnc2)c2ccc(Cl)cc2Cl)c(Cl)c1 | ATCC 18804 | broth dilution | 110.8 µg/mL
C[C@H]1[C@@H](OC2CCC(O)CC2)O[C@@H]2O[C@]3(C)CC[C@H]4[C@H](C)CC[C@@H]1C24OO3 | ATCC 90028 | - | >50 µg/mL
COc1cc(O)c2c(c1)C1=C[C@@H](O)[C@@H](O)C[C@]1(C)OC2=O | SC5314 | resazurin | >250 µM
CC(C)CCCC(C)CCCC(C)CCCC[n+]1ccccc1.Cc1ccc(S(=O)(=O)[O-])cc1 | CCH442 | - | 0.6 µM
C1=C(c2cc3ccccc3s2)C2CCN1CC2 | ATCC 10231 | broth dilution | >16 µg/mL
C1C2CC3CC1CC(C2)C3[C@H]1OOC[C@H]2O[C@@H]12 | - | - | 125–250 µM
COc1c2ccoc2cc2oc(=O)ccc12 | 105 | broth dilution | <400 µg/mL
C[C@H]1[C@@H](Oc2ccc(O)cc2)O[C@@H]2O[C@]3(C)CC[C@H]4[C@H](C)CC[C@@H]1C24OO3 | ATCC 90028 | - | >50 µg/mL
CCCCCSc1nc2ccc(N)cc2s1 | IEM 49/64 | - | <100 µM
CC(C)=CCC/C(C)=C/CCC(C)=CCCC[n+]1ccccc1 | CCH442 | - | >50 µM
Clc1ccc(COC(Cn2ccnc2)c2ccc(Cl)cc2Cl)c(Cl)c1 | 75 strains | agar diffusion / agar | <10 µg/mL
O=C(O)/C=C/c1ccccc1 | ATCC 10231 | broth dilution / turbidity | 0.74 µM
C[C@H]1OO[C@@H](CC(=O)OCC2[C@H]3C[C@@H]4C[C@H](C3)C(Br)[C@H]2C4)[C@@H]2O[C@@H]21 | - | - | >1000 µM
CCOC(=O)c1ccc(C2=CN3CCC2CC3)cc1 | ATCC 10231 | broth dilution | >16 µg/mL
C1CCC(C[C@@H]2CN3C(=NC[C@@H]3C3CCCCC3)N2CCC23CC4CC(CC(C4)C2)C3)CC1 | ATCC 10231 | - | 2.5 µg/mL
C[C@H](COc1ccc(/C=C2\SC(=S)N(CC(=O)O)C2=O)cc1O[C@H](c1ccccc1)C(F)(F)F)c1ccccc1 | G418-sensitive | - | 0.015 µM
CC/C=C/[C@H](CC)C/C(=C/[C@@]1(CC)C[C@H](CC)[C@H](CC(=O)O)OO1)CC | - | - | 3 µg/mL
CCC[CH2][Sn]([CH2]CCC)([NH]c1ccccc1C(=O)O)[O]C(=O)c1ccccc1N | ATCC 18804 | broth dilution | 7.5 µg/mL
C1=C(c2ccc(OCc3ccccc3)cc2)C2CCN1CC2 | ATCC 10231 | broth dilution | 1 µg/mL
CCCCN1C2=NC[C@H](Cc3ccccc3)N2C[C@@H]1Cc1ccccc1 | ATCC 10231 | - | >250 µg/mL
S=c1[nH]nc(Sc2ccc(Cl)nn2)s1 | ATCC 90028 | resazurin | >50 µg/mL
O=C(O)c1ccccc1O | PYCC 3436 | broth dilution / turbidity | 0.05 µM
Clc1ccccc1C(c1ccccc1)(c1ccccc1)n1ccnc1 | 75 strains | agar diffusion / agar | <10 µg/mL
Cc1ccc[n+](CCCCC(C)CCCC(C)CCCC(C)C)c1.O=C([O-])C(F)(F)F | CCH442 | - | 0.47 µM
Oc1ccc(C(c2cc(Br)c(O)cc2O)c2cc(Br)c(O)cc2O)cc1 | ATCC 10231 | - | 25 µg/mL
CCCC(N)CC(=O)O | - | - | >256 µg/mL
C1=C(c2cc3ccccc3o2)C2CCN1CC2 | ATCC 10231 | broth dilution | >16 µg/mL
C=C1C[C@H](N)[C@H](C(=O)O)C1C | - | - | 128 µg/mL
COc1cc(O)c2c(=O)c3c(C)cc(O)cc3oc2c1 | SC5314 | resazurin | 149 µM
CCN1C2=NC[C@H](Cc3ccccc3)N2C[C@H]1CC1CCCCC1 | ATCC 10231 | - | >64 µg/mL
COc1c2occc2cc2ccc(=O)oc12 | 105 | broth dilution | <400 µg/mL
C[C@@H]1C=CC(CC(=O)OC2C3CC4CC(C3)CC2C4)OO1 | - | - | 125–250 µM
CO[C@H]1O[C@@H]2O[C@@]3(C)CC[C@H]4[C@H](C)CC[C@@H]([C@H]1C)[C@@]24OO3 | ATCC 90028 | - | >50 µg/mL
Cc1cc(O)cc2c(=O)oc(C[C@@H](C)O)cc12 | SC5314 | resazurin | 193 µM
CC(C)(C)C1CCC(CN2C3=NC[C@H](C4CCCCC4)N3C[C@@H]2CC2CCCCC2)CC1 | ATCC 10231 | - | 8.7 µg/mL
C[C@H]1C=C[C@@H](CC23CC4CC(CC(C4)C2)C3)OO1 | - | - | 125–250 µM
CC(C)=CCC/C(C)=C/CCC(C)=CCCC[n+]1ccc(N(C)C)cc1.O=C([O-])C(F)(F)F | CCH442 | - | 0.09 µM
CN[C@H]1CC[C@@H](c2ccc(Cl)c(Cl)c2)c2ccccc21 | - | broth dilution | 14–28 µg/mL
c1ccc([Se][Se]c2ccccc2)cc1 | - | - | 2–10 µM
C[C@@H]1[C@H](O)[C@@H](C)/C=C/C=C/CC/C=C/C=C/C=C/C=C/C(O[C@H]2O[C@H](C)[C@@H](O)[C@H](N)[C@@H]2O)CC2O[C@](O)(CC(O)C(O)CCC(O)CC(O)CC(O)CC(=O)O[C@H]1C)CC(O)C2C(=O)O | 75 strains | agar diffusion / agar | <10 µg/mL
COc1ccc(Sc2n[nH]c(=S)s2)nn1 | ATCC 90028 | resazurin | >50 µg/mL
O=Cc1cccc(O)c1O | PYCC 3436 | broth dilution / turbidity | 0.01 µM
C=C1C[C@H](C(=O)O)[C@@H](N)C1 | - | - | 128 µg/mL
FC(F)(F)c1cccc([Se][Se]c2cccc(C(F)(F)F)c2)c1 | - | - | 2–10 µM
CCCCCCCCCCCCC#CCCCCC(=O)O | SC5314 | broth dilution | 4 µg/mL
COc1cc(O)c2c(c1)C1OC(=O)C[C@]1(C)OC2=O | SC5314 | resazurin | >250 µM
C1=C(c2cnc3ccccc3c2)C2CCN1CC2 | ATCC 10231 | broth dilution | >16 µg/mL
N[C@H]1CC[C@H]1C(=O)O | - | - | 128 µg/mL
C[C@H]1C=C(C2C3CC4CC(C3)CC2C4)COO1 | - | - | 63–125 µM
O=C1N2C3C(=COC=CC3O)CC23SSC12CC1=COC=CC(O)C1N2C3=O | E83 | - | 2.5 µg/mL

6 of the rows above, restated:

SMILES | strain | method | value
CCCCN1C2=NC[C@H](Cc3ccccc3)N2C[C@@H]1Cc1ccccc1 | ATCC 10231 | - | >250 µg/mL
C[C@H]1C=C[C@@H](CC23CC4CC(CC(C4)C2)C3)OO1 | - | - | 125–250 µM
CCCCCCCCCCCCC#CCCCCC(=O)O | SC5314 | broth dilution | 4 µg/mL
C1=C(c2ccc(OCc3ccccc3)cc2)C2CCN1CC2 | ATCC 10231 | broth dilution | 1 µg/mL
CCN1C2=NC[C@H](Cc3ccccc3)N2C[C@H]1CC1CCCCC1 | ATCC 10231 | - | >64 µg/mL
C1CCC(C[C@@H]2CN3C(=NC[C@@H]3C3CCCCC3)N2CCC23CC4CC(CC(C4)C2)C3)CC1 | ATCC 10231 | - | 2.5 µg/mL

An empty or dashed field is not shown. Two numbers with a dash give a range or band. ECn: concentration that inhibits the pathogen or its effect by n%.